Laboratory results published in PMC7551932 (Toxins, 2020).

Chains of the proteins cited; added tags and fusions are not shown.
UniProt P04775, whole entry: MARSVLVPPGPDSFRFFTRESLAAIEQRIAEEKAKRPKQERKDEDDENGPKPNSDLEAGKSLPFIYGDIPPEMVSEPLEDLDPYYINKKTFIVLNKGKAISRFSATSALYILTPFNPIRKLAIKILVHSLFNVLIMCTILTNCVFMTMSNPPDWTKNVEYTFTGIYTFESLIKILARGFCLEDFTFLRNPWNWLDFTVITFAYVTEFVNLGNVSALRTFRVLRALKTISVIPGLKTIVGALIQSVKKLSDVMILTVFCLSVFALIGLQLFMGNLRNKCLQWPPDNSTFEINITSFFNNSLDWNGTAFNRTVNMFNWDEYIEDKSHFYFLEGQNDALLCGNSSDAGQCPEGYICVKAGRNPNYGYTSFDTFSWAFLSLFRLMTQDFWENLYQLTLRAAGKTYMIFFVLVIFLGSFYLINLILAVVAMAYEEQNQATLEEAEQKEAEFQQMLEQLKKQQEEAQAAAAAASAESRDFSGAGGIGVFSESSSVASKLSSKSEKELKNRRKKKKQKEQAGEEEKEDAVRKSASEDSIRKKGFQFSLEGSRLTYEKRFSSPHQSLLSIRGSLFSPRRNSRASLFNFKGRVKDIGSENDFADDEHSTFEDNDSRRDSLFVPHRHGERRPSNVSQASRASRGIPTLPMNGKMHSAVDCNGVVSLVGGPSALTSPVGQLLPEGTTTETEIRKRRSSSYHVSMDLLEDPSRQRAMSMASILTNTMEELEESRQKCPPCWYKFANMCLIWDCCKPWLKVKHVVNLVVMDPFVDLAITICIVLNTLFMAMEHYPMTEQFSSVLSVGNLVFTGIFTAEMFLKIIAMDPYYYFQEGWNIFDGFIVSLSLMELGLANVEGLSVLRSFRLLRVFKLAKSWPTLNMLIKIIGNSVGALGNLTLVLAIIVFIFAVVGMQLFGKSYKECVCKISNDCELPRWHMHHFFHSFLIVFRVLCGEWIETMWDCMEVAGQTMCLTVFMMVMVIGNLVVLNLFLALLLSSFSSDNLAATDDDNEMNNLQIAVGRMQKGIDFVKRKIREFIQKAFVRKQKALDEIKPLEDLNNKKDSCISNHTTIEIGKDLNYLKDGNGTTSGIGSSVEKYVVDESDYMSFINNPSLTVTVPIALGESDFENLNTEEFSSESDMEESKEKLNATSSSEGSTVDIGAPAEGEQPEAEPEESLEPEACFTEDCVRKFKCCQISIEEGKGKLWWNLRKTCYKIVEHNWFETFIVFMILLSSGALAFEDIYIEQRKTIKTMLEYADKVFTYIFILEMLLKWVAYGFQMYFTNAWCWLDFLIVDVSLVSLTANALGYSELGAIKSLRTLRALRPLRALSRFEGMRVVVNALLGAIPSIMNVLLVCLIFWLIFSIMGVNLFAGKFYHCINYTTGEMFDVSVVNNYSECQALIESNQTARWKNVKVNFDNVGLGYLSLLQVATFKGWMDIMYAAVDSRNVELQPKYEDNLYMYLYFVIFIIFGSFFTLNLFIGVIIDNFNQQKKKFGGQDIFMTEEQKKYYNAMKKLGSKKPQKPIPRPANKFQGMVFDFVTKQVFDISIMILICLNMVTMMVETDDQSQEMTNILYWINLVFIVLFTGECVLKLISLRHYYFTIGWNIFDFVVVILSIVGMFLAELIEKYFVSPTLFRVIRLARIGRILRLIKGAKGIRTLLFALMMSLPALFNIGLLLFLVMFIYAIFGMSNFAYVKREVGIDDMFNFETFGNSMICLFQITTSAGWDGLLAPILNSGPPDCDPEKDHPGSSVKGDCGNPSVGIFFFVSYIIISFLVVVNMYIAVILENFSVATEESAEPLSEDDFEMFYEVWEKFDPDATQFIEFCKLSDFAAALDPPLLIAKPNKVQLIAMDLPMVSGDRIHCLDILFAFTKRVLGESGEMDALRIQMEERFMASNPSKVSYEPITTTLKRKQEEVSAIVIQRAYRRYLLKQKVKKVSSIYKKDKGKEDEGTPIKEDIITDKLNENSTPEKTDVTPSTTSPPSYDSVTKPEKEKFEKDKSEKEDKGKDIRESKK
UniProt P08104, whole entry: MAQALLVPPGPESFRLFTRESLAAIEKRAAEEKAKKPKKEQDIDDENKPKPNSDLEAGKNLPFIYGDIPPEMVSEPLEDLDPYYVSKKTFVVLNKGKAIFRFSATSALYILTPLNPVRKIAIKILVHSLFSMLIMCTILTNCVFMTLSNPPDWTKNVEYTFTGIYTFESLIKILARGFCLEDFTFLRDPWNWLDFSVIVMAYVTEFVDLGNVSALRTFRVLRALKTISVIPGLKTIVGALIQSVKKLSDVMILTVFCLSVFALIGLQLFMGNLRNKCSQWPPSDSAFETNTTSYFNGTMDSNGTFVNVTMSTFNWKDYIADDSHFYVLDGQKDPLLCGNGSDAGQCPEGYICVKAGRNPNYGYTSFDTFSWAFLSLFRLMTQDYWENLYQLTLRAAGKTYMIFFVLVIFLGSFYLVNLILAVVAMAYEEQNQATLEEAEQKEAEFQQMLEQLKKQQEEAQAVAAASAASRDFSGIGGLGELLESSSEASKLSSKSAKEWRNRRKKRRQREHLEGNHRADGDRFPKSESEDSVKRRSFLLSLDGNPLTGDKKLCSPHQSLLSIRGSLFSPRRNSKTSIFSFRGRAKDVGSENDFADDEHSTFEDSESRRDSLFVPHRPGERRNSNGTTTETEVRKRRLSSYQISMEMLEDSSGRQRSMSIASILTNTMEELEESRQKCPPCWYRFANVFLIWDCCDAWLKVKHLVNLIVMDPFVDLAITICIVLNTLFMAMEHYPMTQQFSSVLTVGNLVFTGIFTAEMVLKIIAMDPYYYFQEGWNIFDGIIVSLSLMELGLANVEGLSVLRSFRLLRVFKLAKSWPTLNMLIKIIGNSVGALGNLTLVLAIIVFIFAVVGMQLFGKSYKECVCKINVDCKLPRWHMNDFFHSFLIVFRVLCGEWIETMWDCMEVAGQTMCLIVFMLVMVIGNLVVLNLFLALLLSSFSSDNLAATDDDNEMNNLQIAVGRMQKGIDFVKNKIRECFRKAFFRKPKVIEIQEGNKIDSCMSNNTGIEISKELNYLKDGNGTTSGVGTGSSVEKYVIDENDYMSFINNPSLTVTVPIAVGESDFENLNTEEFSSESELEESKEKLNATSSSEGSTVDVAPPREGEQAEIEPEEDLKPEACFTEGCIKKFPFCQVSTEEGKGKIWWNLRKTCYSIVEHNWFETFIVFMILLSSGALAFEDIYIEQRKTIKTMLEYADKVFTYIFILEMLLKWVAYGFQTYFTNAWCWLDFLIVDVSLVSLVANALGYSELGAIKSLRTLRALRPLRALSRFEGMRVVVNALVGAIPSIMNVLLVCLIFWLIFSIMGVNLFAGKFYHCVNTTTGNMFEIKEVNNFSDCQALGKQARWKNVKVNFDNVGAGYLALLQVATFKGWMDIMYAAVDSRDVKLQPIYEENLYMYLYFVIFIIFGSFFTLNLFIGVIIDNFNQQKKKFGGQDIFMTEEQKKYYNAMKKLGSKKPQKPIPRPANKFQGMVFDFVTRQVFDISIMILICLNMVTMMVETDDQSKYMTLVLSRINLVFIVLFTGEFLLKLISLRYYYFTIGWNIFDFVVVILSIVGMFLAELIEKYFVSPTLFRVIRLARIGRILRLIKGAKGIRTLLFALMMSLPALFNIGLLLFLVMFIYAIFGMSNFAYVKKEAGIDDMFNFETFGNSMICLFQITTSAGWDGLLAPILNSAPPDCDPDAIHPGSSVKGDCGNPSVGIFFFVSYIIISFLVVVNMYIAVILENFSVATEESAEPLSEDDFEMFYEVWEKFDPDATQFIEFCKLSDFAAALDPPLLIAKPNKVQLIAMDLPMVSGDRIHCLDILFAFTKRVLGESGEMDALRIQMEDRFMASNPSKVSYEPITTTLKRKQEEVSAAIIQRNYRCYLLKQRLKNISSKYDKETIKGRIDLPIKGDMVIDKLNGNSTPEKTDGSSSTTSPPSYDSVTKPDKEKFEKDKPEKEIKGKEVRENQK
UniProt P15390, whole entry: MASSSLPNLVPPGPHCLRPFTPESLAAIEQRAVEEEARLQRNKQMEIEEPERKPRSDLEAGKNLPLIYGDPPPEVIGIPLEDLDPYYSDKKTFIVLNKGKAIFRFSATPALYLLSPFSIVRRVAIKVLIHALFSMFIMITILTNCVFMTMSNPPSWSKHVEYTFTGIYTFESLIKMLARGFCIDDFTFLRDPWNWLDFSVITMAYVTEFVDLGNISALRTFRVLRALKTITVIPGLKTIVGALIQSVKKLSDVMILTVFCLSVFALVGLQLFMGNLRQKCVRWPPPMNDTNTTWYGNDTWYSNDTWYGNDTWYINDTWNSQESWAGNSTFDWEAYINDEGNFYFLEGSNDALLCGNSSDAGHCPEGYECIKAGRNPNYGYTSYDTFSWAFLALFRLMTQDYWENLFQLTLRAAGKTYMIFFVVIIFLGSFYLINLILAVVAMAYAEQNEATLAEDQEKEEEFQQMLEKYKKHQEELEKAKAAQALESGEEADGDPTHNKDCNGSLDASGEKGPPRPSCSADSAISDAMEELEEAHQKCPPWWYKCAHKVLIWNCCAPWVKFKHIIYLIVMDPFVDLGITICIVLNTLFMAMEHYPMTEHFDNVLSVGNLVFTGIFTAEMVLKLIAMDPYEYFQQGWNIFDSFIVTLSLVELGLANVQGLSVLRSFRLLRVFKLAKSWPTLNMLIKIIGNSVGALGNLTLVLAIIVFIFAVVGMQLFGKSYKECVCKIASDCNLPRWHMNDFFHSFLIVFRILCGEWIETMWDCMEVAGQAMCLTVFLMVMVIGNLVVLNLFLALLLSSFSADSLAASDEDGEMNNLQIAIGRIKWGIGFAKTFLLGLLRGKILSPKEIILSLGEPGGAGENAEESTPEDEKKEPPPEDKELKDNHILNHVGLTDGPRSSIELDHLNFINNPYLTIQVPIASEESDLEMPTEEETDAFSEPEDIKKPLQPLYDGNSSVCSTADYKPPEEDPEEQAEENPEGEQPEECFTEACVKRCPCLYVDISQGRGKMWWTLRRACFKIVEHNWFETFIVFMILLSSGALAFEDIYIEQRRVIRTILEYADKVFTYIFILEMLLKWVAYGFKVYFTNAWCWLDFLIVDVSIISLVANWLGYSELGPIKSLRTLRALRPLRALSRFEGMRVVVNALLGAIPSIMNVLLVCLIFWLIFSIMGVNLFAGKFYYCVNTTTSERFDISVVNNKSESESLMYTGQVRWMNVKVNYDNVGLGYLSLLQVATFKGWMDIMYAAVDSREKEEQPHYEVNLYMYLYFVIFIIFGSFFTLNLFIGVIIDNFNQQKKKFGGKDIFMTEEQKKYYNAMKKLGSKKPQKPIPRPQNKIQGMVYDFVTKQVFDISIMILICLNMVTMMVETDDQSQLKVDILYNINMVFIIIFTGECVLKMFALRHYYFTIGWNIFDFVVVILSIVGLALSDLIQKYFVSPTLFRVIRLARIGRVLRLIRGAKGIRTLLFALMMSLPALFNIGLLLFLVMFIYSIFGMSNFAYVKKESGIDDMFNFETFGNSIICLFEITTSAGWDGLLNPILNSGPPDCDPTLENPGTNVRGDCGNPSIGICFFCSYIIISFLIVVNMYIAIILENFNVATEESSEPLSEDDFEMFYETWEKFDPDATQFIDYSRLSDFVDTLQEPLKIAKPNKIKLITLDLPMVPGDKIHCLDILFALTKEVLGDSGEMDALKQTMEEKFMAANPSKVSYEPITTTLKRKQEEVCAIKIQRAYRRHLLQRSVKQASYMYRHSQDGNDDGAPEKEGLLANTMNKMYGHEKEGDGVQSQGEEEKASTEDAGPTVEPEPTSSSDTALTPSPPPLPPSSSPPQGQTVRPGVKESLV

How the values were obtained:
Assay in all cases: cell-based
rNaV1.2 = molecular target: T1, rNaV1.2 (Rattus norvegicus, UniProt P04775)
T1 construct: expressed in transfected cells; host or cells: HEK293T

rNaV1.3 = molecular target: T2, rNaV1.3 (Rattus norvegicus, UniProt P08104)
T2 construct: expressed in transfected cells; host or cells: HEK293T

rNaV1.4 = molecular target: T3, rNaV1.4 (Rattus norvegicus, UniProt P15390)
T3 construct: expressed in transfected cells; host or cells: HEK293T

mNaV1.6 = molecular target: T4, mNaV1.6 (Mus musculus, UniProt Q9WTU3)
T4 construct: expressed in transfected cells; host or cells: HEK293T

hNaV1.7 = molecular target: T5, hNaV1.7 (Homo sapiens, UniProt Q15858)
T5 construct: expressed in transfected cells; host or cells: HEK293T

CC[C@H](C)[C@H](NC(=O)[C@H](CCCCN)NC(=O)[C@H](Cc1ccc(O)cc1)NC(=O)[C@H](CCCCN)NC(=O)[C@@H]1CSSC[C@@H]2NC(=O)[C@H](CCC(=O)O)NC(=O)[C@H](CC(=O)O)NC(=O)[C@H](CCCCN)NC(=O)CNC(=O)[C@@H]3CCCN3C(=O)[C@H]([C@@H](C)O)NC(=O)[C@@H]3CSSC[C@H](NC(=O)[C@H](C(C)C)NC(=O)[C@H](Cc4c[nH]cn4)NC(=O)[C@H](CC(N)=O)NC(=O)[C@@H]4CCCN4C(=O)[C@H](CSSC[C@H](NC(=O)[C@H](C)N)C(=O)N[C@@H](CCCCN)C(=O)NCC(=O)N[C@@H]([C@@H](C)CC)C(=O)N[C@@H](Cc4ccccc4)C(=O)N[C@@H](C(C)C)C(=O)N[C@@H]([C@@H](C)O)C(=O)N3)NC2=O)C(=O)N[C@@H](CO)C(=O)N[C@@H](CO)C(=O)N[C@@H](CCCCN)C(=O)N[C@@H](Cc2c[nH]cn2)C(=O)N[C@@H](CCCCN)C(=O)N[C@@H](Cc2c[nH]c3ccccc23)C(=O)N1)C(=O)O [Cl6b]
IC50 (rNaV1.2): 35.6 ± 7.3 nM | IC50 (rNaV1.3): 61.6 ± 15.2 nM | IC50 (rNaV1.4): 51.5 ± 6.9 nM | IC50 (mNaV1.6): 12.6 ± 0.3 nM | IC50 (hNaV1.7): 18.8 ± 2.4 nM
